PubChem BioAssay AID504761, Drosophila RNAi Screening Center, 2011
The deposit covers about 22,000 reagents; below is an unselected part of those with a known target gene and a result. In the full data, 116 (0.52%) are marked active. 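Calls depend on retest data that are not deposited; infection was ranked per plate without normalising between plates; the unit of the infection score is not given.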 Raw values are not corrected between plates. Unmarked entries are inactive. Not all columns of the deposit are shown. No sequences are given here. Not stated in the record: the amount of reagent, the time to read-out.

- Assay: 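Insect host genes that dengue virus relies on to spread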 (primary screen)
- Cells: D.Mel-2 cells from Drosophila
- Knock-down reagent: long dsRNA against Drosophila genes
- Conditions: infection with dengue virus type 2; dose and infection time not stated
- Detection: 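Per well on two replicate plates, imaging gave the percent of cells positive for viral envelope protein, ranked by infection, and a nuclear count of cells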
- Scale: infection score: higher = more virus-infected cells; cell count: higher = more cells in the well
- Hit rule: 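Low infection ranks in the two replicates (chance level up to 0.065) followed by a retest with a 1.5-fold or larger significant decrease, p below 0.05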
- Calls: active = confirmed: knock-down lowers infection; inactive = not picked or not confirmed

| Target gene | dsRNA | infection score, replicate 1 | infection score, replicate 2 | cell count, replicate 1 |
| --- | --- | --- | --- | --- |
| Cyfip (Cytoplasmic FMR1 interacting protein) | DRSC15679 | 35.9 | 35 | 4929 |
| CG3770 | DRSC04416 | 3.94 | 39.4 | 6518 |
| Nulp1 (Nuclear localized protein 1) | DRSC09677 | 10.7 | 9.98 | 6619 |
| Duba (Deubiquitinating enzyme A) | DRSC10582 | 3.86 | 15.4 | 5177 |
| Spn77Ba (Serpin 77Ba) | DRSC10693 | 6.46 | 17.3 | 1950 |
| CG2614 | DRSC02711 | 10.5 | 3.23 | 6480 |
| CR33318 (pseudo) | DRSC22949 | 5.05 | 11.2 | 6649 |
| CG30431 | DRSC04902 | 13.8 | – | 6599 |
| CG30431 | DRSC04904 | 7.21 | 13 | 6784 |
| hoka | DRSC08313 | 5.34 | 1.99 | 6160 |

A portion from the list above, as a working copy:
| Target gene | dsRNA | infection score, replicate 1 | infection score, replicate 2 | cell count, replicate 1 |
| --- | --- | --- | --- | --- |
| Nulp1 (Nuclear localized protein 1) | DRSC09677 | 10.7 | 9.98 | 6619 |
| Duba (Deubiquitinating enzyme A) | DRSC10582 | 3.86 | 15.4 | 5177 |

More results follow:
| Target gene | dsRNA | infection score, replicate 1 | infection score, replicate 2 | cell count, replicate 1 |
| --- | --- | --- | --- | --- |
| CG14932 | DRSC02414 | 5.06 | 5.27 | 6720 |
| CG14932 | DRSC26333 | 2.86 | 2.34 | 6775 |
| CR42546 (pseudo) | DRSC03711 | 24.9 | 23.2 | 5588 |
| CG30338 | DRSC05166 | 2.08 | 1.08 | 6196 |
| CG32052 | DRSC10966 | 1.15 | 1.52 | 6240 |
| CG32052 | DRSC27465 | 2.15 (active) | 1.39 | 6921 |
| ssp7 (short spindle 7) | DRSC18878 | 4.57 | 7.42 | 6411 |
| Or63a (Odorant receptor 63a) | DRSC08681 | 1.95 | 7.28 | 5798 |
| PolZ1 (DNA polymerase zeta subunit 1) | DRSC06800 | 5.17 | 20.4 | 5864 |
| PolZ1 (DNA polymerase zeta subunit 1) | DRSC28574 | – | – | 391 |
| ppk19 (pickpocket 19) | DRSC15321 | 5.85 | 2.59 | 5849 |
| Gr77a (Gustatory receptor 77a) | DRSC11446 | 2.6 | 0.77 | 6189 |
| Gr77a (Gustatory receptor 77a) | DRSC26808 | 7.44 | 2.99 | 6668 |
